Experimental data taken from ChEMBL document CHEMBL3102714 (J Med Chem, 2013).

Sequences of proteins named here, by UniProt entry; tags and fusion partners are left off. Residues count along the entry.
UniProt P04757, 26-499 limits assumed: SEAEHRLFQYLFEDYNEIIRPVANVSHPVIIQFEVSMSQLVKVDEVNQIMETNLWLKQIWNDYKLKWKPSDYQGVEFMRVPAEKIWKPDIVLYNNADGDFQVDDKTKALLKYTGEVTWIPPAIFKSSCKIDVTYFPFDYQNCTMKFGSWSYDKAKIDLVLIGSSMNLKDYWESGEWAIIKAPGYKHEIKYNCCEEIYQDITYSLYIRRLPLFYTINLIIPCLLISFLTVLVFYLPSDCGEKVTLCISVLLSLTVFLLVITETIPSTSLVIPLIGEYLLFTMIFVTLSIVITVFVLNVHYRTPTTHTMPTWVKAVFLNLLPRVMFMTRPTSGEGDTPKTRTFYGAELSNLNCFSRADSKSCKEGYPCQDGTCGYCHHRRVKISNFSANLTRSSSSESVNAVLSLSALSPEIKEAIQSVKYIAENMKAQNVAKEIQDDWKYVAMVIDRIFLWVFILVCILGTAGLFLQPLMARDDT
UniProt P12390, 25-500 limits assumed: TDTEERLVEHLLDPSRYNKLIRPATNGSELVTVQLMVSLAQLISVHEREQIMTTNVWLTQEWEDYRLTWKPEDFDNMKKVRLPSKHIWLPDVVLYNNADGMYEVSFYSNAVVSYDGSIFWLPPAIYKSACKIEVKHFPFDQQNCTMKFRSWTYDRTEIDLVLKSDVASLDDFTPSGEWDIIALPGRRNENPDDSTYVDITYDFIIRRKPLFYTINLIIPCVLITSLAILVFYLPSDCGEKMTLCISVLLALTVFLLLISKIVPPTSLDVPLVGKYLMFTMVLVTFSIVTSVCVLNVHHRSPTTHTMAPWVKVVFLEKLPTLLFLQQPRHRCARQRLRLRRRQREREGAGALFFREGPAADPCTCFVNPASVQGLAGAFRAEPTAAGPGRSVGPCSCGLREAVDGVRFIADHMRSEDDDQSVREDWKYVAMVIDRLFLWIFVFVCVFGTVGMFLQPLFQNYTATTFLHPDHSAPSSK
UniProt P12391, 31-464 limits assumed: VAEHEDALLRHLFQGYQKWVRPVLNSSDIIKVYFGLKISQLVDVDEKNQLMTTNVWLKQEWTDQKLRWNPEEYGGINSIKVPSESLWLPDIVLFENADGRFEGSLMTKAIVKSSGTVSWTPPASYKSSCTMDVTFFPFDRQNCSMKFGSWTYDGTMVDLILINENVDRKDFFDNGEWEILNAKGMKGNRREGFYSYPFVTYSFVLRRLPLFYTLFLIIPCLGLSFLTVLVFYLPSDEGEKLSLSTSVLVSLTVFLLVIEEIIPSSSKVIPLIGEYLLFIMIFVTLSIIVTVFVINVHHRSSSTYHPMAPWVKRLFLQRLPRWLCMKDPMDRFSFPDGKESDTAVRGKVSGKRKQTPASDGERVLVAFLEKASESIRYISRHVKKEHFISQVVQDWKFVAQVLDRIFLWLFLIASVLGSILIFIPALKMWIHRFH
UniProt P43143, 31-493 limits assumed: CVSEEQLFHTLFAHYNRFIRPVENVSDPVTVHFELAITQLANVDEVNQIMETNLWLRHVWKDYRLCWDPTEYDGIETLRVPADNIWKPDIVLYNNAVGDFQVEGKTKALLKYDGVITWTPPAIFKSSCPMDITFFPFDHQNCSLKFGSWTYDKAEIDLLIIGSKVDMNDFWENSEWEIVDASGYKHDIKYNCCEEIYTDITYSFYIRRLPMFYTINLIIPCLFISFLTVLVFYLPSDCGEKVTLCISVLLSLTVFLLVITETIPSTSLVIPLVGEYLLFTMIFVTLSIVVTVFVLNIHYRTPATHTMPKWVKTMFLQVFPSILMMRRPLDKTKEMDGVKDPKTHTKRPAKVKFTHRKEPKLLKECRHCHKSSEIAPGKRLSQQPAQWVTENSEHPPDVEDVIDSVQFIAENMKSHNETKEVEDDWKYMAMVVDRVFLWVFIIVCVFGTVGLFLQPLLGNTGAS

Molecular target: Nicotinic acetylcholine receptor alpha6/alpha3/beta2/beta3 (Rattus norvegicus, UniProt P04757+P12390+P12391+P43143)
Test: Antagonist activity at Sprague-Dawley rat alpha6/alpha3beta2beta3 nAChR expressed in Xenopus oocytes assessed as inhibition of ACh-induced current by voltage clamp electrophysiology method

In the case of `CC[C@H](C)[C@@H]1NC(=O)[C@H](CCC(=O)O)NC(=O)[C@@H]2CCCN2C(=O)[C@H](Cc2cnc[nH]2)NC(=O)[C@H](CC(=O)O)NC(=O)[C@H](Cc2ccc(O)cc2)NC(=O)[C@H](CC(N)=O)NC(=O)[C@@H]2CSSC[C@H](NC(=O)CN)C(=O)N[C@@H](CSSC[C@@H](C(N)=O)NC1=O)C(=O)N[C@@H](CO)C(=O)N[C@@H](CC(=O)O)C(=O)N1CCC[C@H]1C(=O)N[C@@H](CCCNC(=N)N)C(=O)N2`, the IC50 is reported as 140 nM.
